From US7371755B1 (Biota Scientific Management Pty Ltd., priority 1999, dated 2008) come the findings set out here.

A value given as a limit tells only on which side of the number the result lay.

Common to all, as to conditions: selectivity index = CC50 or MTC divided by EC50
One data set has as its system HRV type 2. The data set can be described thus: Inhibition of viral cytopathic effect (CPE), HRV type 2 in KB cells. Type of data set: cell-based, human rhinovirus. (Cytopathic effects are the visible damage that an infection or toxin causes in cultured cells.)
A further data set has as its system Echo 21. The data set can be described thus: Activity against Echo 21 in mammalian cell culture assay. Type of data set: cell-based. On the procedure:
(§1) Activity against Enteroviruses in Mammalian Cell Culture Assays Compounds 50 and 56 of the Invention were Tested Against Other Picornaviruses Using Similar cell based assays to those described in example 30 above and the results are shown in Table 6 below: […]

A further data set concerns HRV type 1A. The data set is described as follows: Inhibition of viral cytopathic effect (CPE), HRV type 1A in MRC-5 cells. Type of data set: cell-based, human rhinovirus.
The next data set deals with Coxsackie A21. The data set can be described thus: Activity against Coxsackie A21 in mammalian cell culture assay. Type of data set: cell-based. On the procedure:
as §1

In another data set the test system is Enterovirus 70. The data set is described as follows: Activity against Enterovirus 70 in mammalian cell culture assay. Type of data set: cell-based. On the procedure:
as §1

Regarding `Cc1cc(-c2noc(C(F)(F)F)n2)cc(C)c1OCCCc1cc(COCCOCCOCc2cc(CCCOc3c(C)cc(-c4noc(C(F)(F)F)n4)cc3C)on2)no1` [Compound 50, 1,5-bis-[5-[3-[2,6-dimethyl-4-(5-trifluoromethyl-1,2,4-oxadiazolyl)phenoxy]-propyl]-isoxazolyl-3-methyloxy]-3-oxapentane], the “Activity on Rhinovirus Type 2 SI” value with HRV type 2 is listed as 100. Besides, the “Activity on Echo 21 SI” value with Echo 21 is more than 10000. In the data set on HRV type 1A, the “Activity on Rhinovirus Type 1A SI” value is on record as 167. In addition, the “Activity on Coxsackie A21 SI” value with Coxsackie A21 is listed as more than 143.03.

As to `Cc1cc(-c2ccccc2)cc(C)c1OCCCc1cc(COCCOCCOCCOCCOCCOCCO)no1` [Compound 10], the “Activity on Rhinovirus Type 2 SI” value with HRV type 2 is given as 50.

Consider `Cc1cc(-c2noc(C(F)(F)F)n2)cc(C)c1OCCCc1cc(COCCOCCOCCO)no1` [Compound 24], for which, in the data set on HRV type 2, the “Activity on Rhinovirus Type 2 SI” value is given as more than 30. For the same molecule, in the data set on HRV type 1A, the “Activity on Rhinovirus Type 1A SI” value is recorded as 25.71.

Turning to `Cc1cc(-c2ccccc2)cc(C)c1OCCCc1cc(COCCOCCOCCOCCNC(=O)Nc2ccc(Cc3ccc(NC(=O)NCCOCCOCCOCCOCc4cc(CCCOc5c(C)cc(-c6ccccc6)cc5C)on4)cc3)cc2)no1` [Compound 48], in the data set on HRV type 2, the “Activity on Rhinovirus Type 2 SI” value is listed as more than 8. Besides, in the data set on HRV type 1A, the “Activity on Rhinovirus Type 1A SI” value is listed as 7.75.

As to `NC(=O)c1ncn([C@@H]2O[C@H](CO)[C@@H](O)[C@H]2O)n1` [Ribavirin], the “Activity on Echo 21 SI” value in the data set with Echo 21 is 19. Besides, the “Activity on Rhinovirus Type 1A SI” value with HRV type 1A came to 51.03.

In the case of `CC(C)S(=O)(=O)n1c(N)nc2ccc(/C(=N/O)c3ccccc3)cc21` [Enviroxime], the “Activity on Enterovirus 70 SI” value in the data set with Enterovirus 70 was found to be 19.35. In addition, the “Activity on Echo 21 SI” value in the data set with Echo 21 is recorded as 15. In addition, in the data set on HRV type 1A, the “Activity on Rhinovirus Type 1A SI” value amounted to 75.91. Further, in the data set with Coxsackie A21, the “Activity on Coxsackie A21 SI” value came to 24.25.

As to `Cc1cc(-c2ccccc2)cc(C)c1OCCCc1cc(COCCOCCOCCOCCOCCOCCOCc2cc(CCCOc3c(C)cc(-c4ccccc4)cc3C)on2)no1` [Compound 34], the “Activity on Rhinovirus Type 2 SI” value in the data set on HRV type 2 was more than 5.

With `Cc1cc(-c2ccccc2)cc(C)c1OCCCc1cc(COCCOCCOCCO)no1` [Compound 8], the “Activity on Rhinovirus Type 2 SI” value with HRV type 2 is 5000. For the same molecule, in the data set on HRV type 1A, the “Activity on Rhinovirus Type 1A SI” value amounted to 38.61.

In the case of `Cc1cc(-c2ccccc2)cc(C)c1OCCCc1cc(COCCOCCOCCOCc2cc(CCCOc3c(C)cc(-c4ccccc4)cc3C)on2)no1` [Compound 32, 1,8-bis-[5-[3-[2,6-dimethyl-4-phenylphenoxy]-propyl]-isoxazolyl-3-methyloxy]-3,6-dioxaoctane], the “Activity on Rhinovirus Type 2 SI” value with HRV type 2 was more than 50. Moreover, the “Activity on Rhinovirus Type 1A SI” value with HRV type 1A is recorded as more than 156.32.

On to `CC(=O)NCCOCCOCc1cc(CCCOc2c(C)cc(-c3ccccc3)cc2C)on1` [Compound 19], for which the “Activity on Rhinovirus Type 2 SI” value in the data set with HRV type 2 is listed as more than 400. In the data set with HRV type 1A, the “Activity on Rhinovirus Type 1A SI” value is given as 6.66.

In the case of `CCOC(=O)c1ccc(OCCC2CCN(c3ccc(C)nn3)CC2)cc1` [Pirodavir, reference compound], the “Activity on Rhinovirus Type 2 SI” value with HRV type 2 is given as more than 300. The “Activity on Rhinovirus Type 1A SI” value with HRV type 1A came to 555.74.

As for `COCc1cc(CCCOc2c(C)cc(-c3ccccc3)cc2C)on1` [Compound 6, 3-(methoxymethyl)-5-[3-[2,6-dimethyl-4-phenylphenoxy]-propyl]-isoxazole], the “Activity on Rhinovirus Type 2 SI” value in the data set with HRV type 2 is given as more than 1000. The “Activity on Rhinovirus Type 1A SI” value with HRV type 1A is more than 320.

`Cc1cc(CCCOc2c(C)cc(-c3noc(C(F)(F)F)n3)cc2C)on1` [Pleconaril, reference compound]: the “Activity on Rhinovirus Type 2 SI” value in the data set on HRV type 2 is listed as 10. For the same molecule, the “Activity on Enterovirus 70 SI” value with Enterovirus 70 was more than 178.89. The “Activity on Echo 21 SI” value with Echo 21 is on record as more than 10000. Also, the “Activity on Rhinovirus Type 1A SI” value with HRV type 1A worked out at 500. Moreover, the “Activity on Coxsackie A21 SI” value with Coxsackie A21 is more than 15057.

Turning to `Cc1cc(-c2noc(C(F)(F)F)n2)cc(C)c1OCCCc1cc(COCCOCCOCCOCCOCc2ccc(COCCOCCOCCOCCOCc3cc(CCCOc4c(C)cc(-c5noc(C(F)(F)F)n5)cc4C)on3)cc2)no1` [Compound 56], the “Activity on Rhinovirus Type 2 SI” value in the data set with HRV type 2 is on record as 22. Besides, the “Activity on Enterovirus 70 SI” value in the data set with Enterovirus 70 is more than 17.3. In the data set with Echo 21, the “Activity on Echo 21 SI” value came out at 3000. Also, in the data set with HRV type 1A, the “Activity on Rhinovirus Type 1A SI” value stood at 6. The “Activity on Coxsackie A21 SI” value in the data set with Coxsackie A21 worked out at 30.51.
